A short description of the series: Recovery studies of the ELISA As230/PC1-BSA (AE) assay in spiked sputum. To be noted: hydrolyzed, diluted 20 times with hPB.

This note sets out measurements from patent US10422791B2, “Haptens and conjugates derived from pyocyanin, antibodies thereof, and immunochemical method for detecting infections caused by Pseudomonas aeruginosa” (priority 2013, dated 2019).

For the compound `Cn1c2cccc(=O)c-2nc2ccccc21` [Pyocyanin, pyocyanin], the Measured concentration is recorded as 2.34 ± 0.37 nM (sputum spiked 2.5 nM); 4.25 ± 1.15 nM (sputum spiked 5 nM); 55.57 ± 7.5 nM (sputum spiked 50 nM); 179.63 ± 17.17 nM (sputum spiked 250 nM); 555.66 ± 88.49 nM (sputum spiked 500 nM); 1035.88 ± 25.39 nM (sputum spiked 1000 nM). Moreover, the Measured concentration was 7219.19 ± 829.25 nM (sputum spiked 10000 nM), 50146.19 ± 1685.17 nM (sputum spiked 50000 nM) and 72434.53 ± 1347.23 nM (sputum spiked 100000 nM).
